Single amino acid changes in Zika NS2B-NS3 and viral growth

Chain scanned (Zika virus MR766; NS2B from position 2 to 131, then the start of NS3):
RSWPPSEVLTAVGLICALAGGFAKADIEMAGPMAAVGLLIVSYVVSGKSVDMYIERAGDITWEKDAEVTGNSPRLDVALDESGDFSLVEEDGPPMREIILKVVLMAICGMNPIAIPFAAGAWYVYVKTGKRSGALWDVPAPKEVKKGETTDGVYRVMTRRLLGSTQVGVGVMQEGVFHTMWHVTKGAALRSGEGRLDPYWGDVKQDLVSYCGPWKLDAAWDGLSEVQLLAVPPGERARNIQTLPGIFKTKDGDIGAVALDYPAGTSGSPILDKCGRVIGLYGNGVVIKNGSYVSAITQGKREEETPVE

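Mutant virus pools were grown in human Huh-7.5 cells. Sequencing of three replicate libraries (two for positions 207-308) was averaged into one effect per change.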

Scale: log2 effect, wild type = 0; the lower, the more harmful to the virus. A change reads original residue, position, new residue. An asterisk is a stop codon; stop codons read about -7, near the floor of the assay.

| substitution | log2 effect |
|---|---|
| F22E | -6.21 |
| A114D | -5.18 |
| E235H | -1.69 |
| L162I | -1.16 |
| P73G | -6.85 |
| F117G | -5.78 |
| N111H | 0.40 |
| P5L | -7.59 |
| V231Q | -3.03 |
| A218F | -6.30 |
| E63* | -4.45 |
| Y53V | -2.11 |
| L259V | -2.67 |
| A66T | -6.74 |
| Y210A | -7.29 |
| I270P | -5.28 |
| Q241F | -5.52 |
| R276K | -2.12 |
| E225Q | -2.91 |
| E97F | -3.71 |
| A218T | -1.71 |
| T10I | -3.83 |
| M29W | -1.86 |
| S209Q | -6.72 |
| M105V | -7.17 |
| G70W | -6.38 |
| Y281V | -6.36 |
| D253C | -2.48 |
| G120M | -0.60 |
| G284N | -4.39 |
| Y43M | -6.15 |
| Q166C | -5.29 |
| T149W | -5.38 |
| L162G | -6.35 |
| D260F | -4.90 |
| Y210Q | -6.54 |
| K130T | -6.99 |
| S86G | -6.84 |
| M180F | -4.31 |
| S42P | -6.78 |
| D51P | -7.32 |
| P244D | -4.92 |
| V226N | -4.94 |
| A230R | -5.70 |
| T242A | -5.03 |
| M33K | -5.62 |
| L162W | -4.09 |
| I113* | -6.53 |
| A218P | -7.11 |
| D84E | -5.93 |
| D91Q | -1.59 |
| K24S | -4.44 |
| K146G | -3.10 |
| E7L | -6.87 |
| V277M | -3.79 |
| T184G | -6.49 |
| A19* | -7.89 |
| V77Y | -6.38 |
| K48R | 0.67 |
| R74N | -1.37 |
| D206S | -7.84 |
| R159H | -5.31 |
| Y43A | -5.46 |
| K250M | -3.11 |
| L196S | -6.71 |
| V285L | -6.43 |
| E235D | 0.53 |
| T179V | -6.68 |
| V103A | -0.59 |
| A114G | -1.55 |
| V124H | -2.14 |
| S294H | -4.42 |
| K48* | -6.40 |
| G92T | -2.78 |
| K300F | -5.34 |
| L104D | -4.96 |
| V257C | -4.82 |
| R238F | 1.11 |
| V41G | -0.65 |
| E308K | -3.74 |
| L228R | -5.88 |
| V77Q | -6.00 |
| S132Q | -5.52 |
| G58Q | -2.65 |
| Q173C | -1.64 |
| V36E | -5.43 |
| G245T | -6.57 |
| G201M | -5.94 |
| P213Y | -0.69 |
| T242L | -6.93 |
| D59I | -4.84 |
| A218Q | -4.65 |
| V203W | -7.13 |
| A237C | 0.87 |
| E97T | -2.48 |
| S294Y | -4.51 |
| Y125D | -5.38 |
| V167A | 0.35 |
| K142N | -4.35 |
| P4M | -5.33 |
| P232* | -6.44 |

The last 9 entries again:

- V203W -> -7.13
- A237C -> 0.87
- E97T -> -2.48
- S294Y -> -4.51
- Y125D -> -5.38
- V167A -> 0.35
- K142N -> -4.35
- P4M -> -5.33
- P232* -> -6.44

Position 1 still belongs to NS2A. In the paper, -1 or higher counts as tolerated. Values above 0 are not proof of better growth: six high scorers were tested one by one, five grew less well than wild type and one about as well. The region was split into three libraries (1-103, 104-206, 207-308).

The measurements come from Ni et al. 2025 (doi:10.1038/s41467-025-63602-z).